## PSTVd loop 6 mutant pool in Nicotiana benthamiana

From the data files of Wu et al. 2024, doi:10.1371/journal.ppat.1012142.

The pool varies loop 6 of the PSTVd intermediate strain in the pattern UNNNCGNNNG; wild type is UGACCGCGAG (upper and lower strand joined, each 5' to 3', the first 5 letters being the upper strand, closing pairs included).

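A pool of all variants was put on leaves of three Nicotiana benthamiana plants. Progeny were sequenced from the inoculated region (day 5), the margin of the inoculated leaf (day 10) and systemic leaves (day 12).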

Values are reads per thousand in the sample; higher means more abundant, 0 means not found. Each site shows the three plants. "Pool" is the share in the plasmid pool used as inoculum, on the same scale. The inoculated region was read from the minus strand, the other sites from the plus strand. IR is the inoculated region, LM the leaf margin, Sys the systemic leaves. The authors trace changes outside the varied positions to PCR and sequencing errors or to mutation in the plant; presence does not show that a variant is infectious alone.

| sequence | pool | IR | LM | Sys |
|---|---|---|---|---|
| UUAGCGAAGG | 0.157 | 0.0869 0.0719 0.0553 | 0.0276 0 0 | 0 0 0 |
| UUAGCGAAUG | 0.301 | 0.104 0.0359 0.0553 | 0 0 0 | 0 0 0 |
| UUAGCGACAG | 0.484 | 0.139 0.108 0.0738 | 0 0 0 | 0 0 0.0205 |
| UUAGCGACCG | 0.183 | 0.156 0.144 0.0738 | 0.0276 0 0 | 0 0 0 |
| UUAGCGACGG | 0.222 | 0.0695 0.108 0.0553 | 0 0 0.0464 | 0 0 0 |
| UUAGCGACUG | 0.392 | 0.104 0.0539 0.129 | 0 0 0 | 0 0 0 |
| UUAGCGAGAG | 0.261 | 0.174 0.126 0.129 | 0 0 0.0232 | 0 0 0.0205 |
| UUAGCGAGCG | 0.327 | 0.104 0.108 0.0738 | 0.0276 0 0 | 0 0 0 |
| UUAGCGAGGG | 0.261 | 0.0869 0.108 0.0553 | 0 0 0.0232 | 0 0 0 |
| UUAGCGAGUG | 0.196 | 0.0695 0.108 0 | 0 0 0 | 0 0 0 |
| UUAGCGAUAG | 0.301 | 0.0348 0.0539 0.0738 | 0.0276 0 0.255 | 0 0 0 |
| UUAGCGAUCG | 0.327 | 0.0869 0.0539 0.0738 | 0.0276 0 0 | 0 0 0 |
| UUAGCGAUGG | 0.405 | 0.122 0.0898 0.0184 | 0 0 0 | 0 0.0202 0 |
| UUAGCGAUUG | 0.445 | 0.104 0.162 0.0553 | 0 0 0 | 0 0 0 |
| UUAGCGCAAG | 0.144 | 0.156 0.162 0.111 | 0.0828 0 0.0232 | 0 0 0 |
| UUAGCGCACG | 0.183 | 0.156 0.162 0.0369 | 0 0 0 | 0 0 0 |
| UUAGCGCAGG | 0.275 | 0.0695 0.0898 0 | 0.0276 0 0.0232 | 0 0 0 |
| UUAGCGCAUG | 0.288 | 0.104 0.126 0.0738 | 0 0 0.0232 | 0 0 0 |
| UUAGCGCCAG | 0.183 | 0.174 0.144 0.0553 | 0 0 0 | 0 0 0 |
| UUAGCGCCCG | 0.366 | 0.0695 0.0719 0.0553 | 0 0 0 | 0 0 0.0205 |
| UUAGCGCCGG | 0.222 | 0.0521 0.0719 0.0922 | 0 0 0 | 0 0 0 |
| UUAGCGCCUG | 0.314 | 0.0695 0.0359 0.111 | 0.0276 0 0 | 0 0 0 |
| UUAGCGCGAG | 0.418 | 0.104 0.251 0.0922 | 0.497 0.0252 0 | 0 0.0202 0.0820 |
| UUAGCGCGAU | 0.0131 | 0 0 0.129 | 0.0276 0 0.0232 | 0 0 0 |
| UUAGCGCGCG | 0.222 | 0.0695 0.0180 0.0922 | 0 0 0.0232 | 0 0 0 |
| UUAGCGCGGG | 0.261 | 0.122 0.0539 0.0738 | 0 0 0 | 0 0 0 |
| UUAGCGCGUG | 0.222 | 0.0521 0.0719 0.0738 | 0 0 0 | 0 0 0 |
| UUAGCGCUAG | 0.170 | 0.0521 0.0719 0.0553 | 0.0276 0 0.0232 | 0 0 0 |
| UUAGCGCUCG | 0.288 | 0.0695 0.0719 0.111 | 0 0 0 | 0 0 0 |
| UUAGCGCUGG | 0.144 | 0.104 0.0180 0.0369 | 0.0276 0 0.0232 | 0 0 0 |
| UUAGCGCUUG | 0.261 | 0.0869 0.126 0.0553 | 0 0 0 | 0 0 0 |
| UUAGCGGAAG | 0.118 | 0.817 0.467 0.277 | 0.166 0.101 0.0232 | 0 0 0 |
| UUAGCGGACG | 0.261 | 0.817 0.683 0.350 | 0.0552 0.126 0.0464 | 0.0180 0.0808 0.0205 |
| UUAGCGGAGG | 0.196 | 0.0869 0.0898 0.0738 | 0 0 0 | 0 0 0 |
| UUAGCGGAUG | 0.366 | 0.0869 0.0719 0.0369 | 0.0276 0 0 | 0 0 0 |
| UUAGCGGCAG | 0.118 | 0.782 0.557 0.461 | 0.0828 0.126 0.0232 | 0 0 0 |
| UUAGCGGCCG | 0.170 | 0.0521 0.0539 0.0922 | 0 0 0.0232 | 0 0 0 |
| UUAGCGGCGG | 0.144 | 0.139 0.0359 0.0922 | 0.0276 0 0 | 0 0 0 |
| UUAGCGGCUG | 0.209 | 0.0869 0.108 0.0922 | 0.0276 0 0 | 0 0 0 |
| UUAGCGGGAG | 0.431 | 0.660 0.665 0.572 | 0.193 0.0757 0.0232 | 0 0.0606 0.0410 |
| UUAGCGGGCG | 0.183 | 0.730 0.701 0.479 | 0.110 0.101 0.0232 | 0 0 0 |
| UUAGCGGGGG | 0.170 | 0.0695 0.126 0.0738 | 0 0 0 | 0 0 0 |
| UUAGCGGGUG | 0.353 | 0.0348 0.0898 0.0738 | 0.0276 0 0 | 0 0 0.0205 |
| UUAGCGGUAG | 0.405 | 0.747 0.683 0.387 | 0.0276 0.126 0.0928 | 0 0 0 |
| UUAGCGGUCG | 0.261 | 0.0695 0.0898 0.0553 | 0.0276 0 0 | 0 0 0 |
| UUAGCGGUGG | 0.392 | 0.0521 0.0898 0.0922 | 0 0 0 | 0 0 0 |
| UUAGCGGUUG | 0.248 | 0.0869 0.108 0.0369 | 0 0 0 | 0 0 0 |
| UUAGCGUAAG | 0.105 | 0.608 0.736 0.590 | 0.110 0 0 | 0.0359 0.0404 0.0410 |

For reference, wild type rose from 20.7 per thousand in the pool to 195, 198, 203 (inoculated region), 629, 591, 734 (leaf margin) and 942, 870, 868 (systemic leaves). With 36,220-57,551 reads a sample, very low values are single reads.